According to article PMC4929490:
Construct, isoform or probe ends are uncertain for at least one entry. Negatives hold for the conditions tested.

Target: GST-TaRIM1 (Triticum aestivum (line CI12633)) (UniProt A0A182BBB2)
Assay: EMSA
Details: ~2 ug protein in binding buffer (composition, salt and pH not given), on ice 6 h, 8% polyacrylamide gel, 100 V 30 min, ethidium bromide stain, recombinant protein, protein details: N-terminal GST (pGEX-4T-1)

| Sequence | binding result | binding result (strongest binding of the 5 MBS probes) |
| --- | --- | --- |
| AATTCATAAGAGCCGCCACTCATAAGAGCCGCCACTCCC (double strand) [GCC-box] | no binding | – |
| AGTCGACCCACCTACCGCGGATCCTCGACCCACCTACCGTCGATC (double strand) [ACI (AC)] | – | binds |
| AGTCGACGTGGATAATGGATCCTCGAGTGGATAATTCGATC (double strand) [St1R] | binds | – |
| TGCCAGTCGCAGTTAGACGTGCCAGTCGCAGTTAGACGTGC / CACGTCTAACTGCGACTGGCACGTCTAACTGCGACTGGCA [MBS1-Bz] | binds | – |
